Test results taken from article PMC10065791 (eLife, 2023).

Test system: HIV-1 NL4-3 wild-type virus
Test: Selection for resistance in CEMx174 culture with escalating inhibitor, start wild-type virus, Primer ID deep sequencing
Type: cell-based
Details: for Abundance of most abundant protease variant at the last time point: wild-type selection, at max inhibitor concentration reached (5000 nM; DRVwt 1350 nM); for primary protease resistance mutation(s) selected: as summarised in text over wild-type and mutant-pool selections
Experimental: . The selection experiments were performed under two separate starting conditions: first when the starting virus was generated from the NL4-3 clone (this clone closely approximates the clade B consensus for the protease amino acid sequence and will be referred to as ‘wild type’), then again when the starting virus was a mixture of 26 isogenic viruses each with a single mutation associated with drug resistance in the NL4-3 background. […]. For technical reasons, only five of the selections starting with the mixture of mutants reached an inhibitor concentration as high as 400 nM and are reported here (Figure 2—figure supplement 3).
Resistance mutations selected in the protease coding domain during the escalating selective pressure of increasing PI concentration were examined at various timepoints using a next-generation sequencing (NGS) protocol that included Primer ID with the MiSeq platform ([Zhou et al., 2015]). We first examined the sequence of the most abundant variant in each of the two selection schemes present at the highest inhibitor concentration reached (Figure 2A). For those selections that reached 5 μM, 8–14 mutations were present in the most abundant variant. Typically the next two most abundant variants in the population differed by a single amino acid, and on average the three most abundant variants in the 5 μM cultures accounted for 88% of the total viral population (Figure 2—source data 1). Evolution of resistance followed two pathways, one based on I50V and one based on I84V. In three cultures, V2wt, V5wt, and V2mut (which reached either 4 or 5 μM final drug concentration; V2wt indicates the virus pool selected with UMASS-2 starting with wild-type virus), these two mutations, I84V and I50V, became linked on the same genome (Figure 2A) showing they are not mutually exclusive; […].
An aliquot of 3 × 10^6 CEMx174 cells was incubated at 37°C for 2–3 hr with 250 µl of a virus stock generated from the HIV-1 infectious molecular clone pNL4-3. The culture volume was then brought to 10 ml with RPMI medium. […] After 48 hr and every 48 hr after, the cells were pelleted by centrifugation and 10 ml of fresh medium and inhibitors were added. When the culture had undergone extensive cytopathic effect (CPE) indicative of viral replication, the supernatant medium and the cells were harvested separately and stored at –80°C. The virus-containing supernatant was used to start the next round of infection, and after several rounds at the initial concentration, the inhibitor concentration was increased 1.5-fold at each subsequent round of virus passage.
We used the PID protocol to prepare MiSeq PID libraries with multiplexed primers. Viral RNA was extracted from plasma samples using the QIAamp viral RNA mini kit (QIAGEN, Hilden, Germany). Complementary DNA (cDNA) was synthesized using a cDNA primer mixture targeting protease (PR) with a block of random nucleotides in each cDNA primer serving as the PID, and SuperScript III RT (Thermo Fisher). After two rounds of bead purification of the cDNA, we amplified the cDNA using a mixture of a forward primer that targeted the upstream coding region, followed by a second round of PCR to incorporate the Illumina adaptor sequences. Gel-purified libraries were pooled and sequenced using the MiSeq 300 base paired-end sequencing protocol (Illumina). The sequencing covered the HIV-1 PR region (HXB2 2648-2914, 3001-3257).
We used the Illumina bcl2fastq pipeline for the initial processing and constructed template consensus sequences (TCSs) with TCS pipeline version 1.33 (https://github.com/SwanstromLab/PID) ([Zhou, 2019]). We then aligned TCSs to an HXB2 reference to remove sequences not at the targeted region or that had large deletions. We used the Entropy tool at LANL (https://www.hiv.lanl.gov/content/sequence/ENTROPY/entropy.html) to calculate entropy for each specimen. The sequencing data is available at NIH Sequencing Read Archive (SRA) under BioProject ID PRJNA853351.

Structure (SMILES) | Abundance of most abundant protease variant at the last time point | primary protease resistance mutation(s) selected
CC(C)CN(C[C@@H](O)[C@H](Cc1ccccc1)NC(=O)O[C@H]1CO[C@H]2OCC[C@H]21)S(=O)(=O)c1ccc(N)cc1 [DRV, Darunavir, reference compound] | 62.8% | –
CC[C@H](C)CN(C[C@@H](O)[C@H](Cc1ccccc1)NC(=O)O[C@H]1CO[C@H]2OCC[C@H]21)S(=O)(=O)c1ccc(N)cc1 [UMASS-1] | 55.4% | preferentially selects for I84V
CC[C@H](C)CN(C[C@@H](O)[C@H](Cc1ccccc1)NC(=O)O[C@H]1CO[C@H]2OCC[C@H]21)S(=O)(=O)c1ccc(OC)cc1 [UMASS-2] | 37.5% | I84V and I50V linked on the same genome
CC[C@H](C)CN(C[C@@H](O)[C@H](Cc1ccccc1)NC(=O)O[C@H]1CO[C@H]2OCC[C@H]21)S(=O)(=O)c1ccc(CO)cc1 [UMASS-3] | 85.7% | –
CC[C@H](C)CN(C[C@@H](O)[C@H](Cc1ccccc1)NC(=O)O[C@H]1CO[C@H]2OCC[C@H]21)S(=O)(=O)c1ccc2c(c1)OCO2 [UMASS-4] | 87.3% | –
CC[C@H](C)CN(C[C@@H](O)[C@H](Cc1ccccc1)NC(=O)O[C@H]1CO[C@H]2OCC[C@H]21)S(=O)(=O)c1ccc2ncsc2c1 [UMASS-5] | 67.9% | I84V and I50V linked on the same genome
CCC(CC)CN(C[C@@H](O)[C@H](Cc1ccccc1)NC(=O)O[C@H]1CO[C@H]2OCC[C@H]21)S(=O)(=O)c1ccc(N)cc1 [UMASS-6] | 45.1% | –
CCC(CC)CN(C[C@@H](O)[C@H](Cc1ccccc1)NC(=O)O[C@H]1CO[C@H]2OCC[C@H]21)S(=O)(=O)c1ccc(OC)cc1 [UMASS-7] | 94.5% | just the I50V primary mutation
CCC(CC)CN(C[C@@H](O)[C@H](Cc1ccccc1)NC(=O)O[C@H]1CO[C@H]2OCC[C@H]21)S(=O)(=O)c1ccc(CO)cc1 [UMASS-8] | 55.4% | –
CCC(CC)CN(C[C@@H](O)[C@H](Cc1ccccc1)NC(=O)O[C@H]1CO[C@H]2OCC[C@H]21)S(=O)(=O)c1ccc2c(c1)OCO2 [UMASS-9] | 92.3% | –
CCC(CC)CN(C[C@@H](O)[C@H](Cc1ccccc1)NC(=O)O[C@H]1CO[C@H]2OCC[C@H]21)S(=O)(=O)c1ccc2ncsc2c1 [UMASS-10] | 91.2% | just the I50V primary mutation
